Data reported in article PMC10499932, “Broadly neutralizing antibodies derived from the earliest COVID-19 convalescents protect mice from SARS-CoV-2 variants challenge” (Signal Transduction and Targeted Therapy, 2023).

Target: SARS-CoV-2 WT receptor binding domain (RBD) of Spike (SARS-CoV-2, UniProt P0DTC2)

B1: 3C4 (antibody, V domains shown)
VH: EVQLVESGGGLVQPGRSLRLSCAASGFNFDDFAMHWVRQAPGKGLEWVSGISWNSVNIGYADSVKGRFTISRDNAKNSLYLQMNSLRAEDTALYYCGKDMFPYSFYYYGMDVWGQGTTVTVSS
VL: EIVLTQSPATLSLSPGERATLSCRASQSVTSYLAWYQQKPGQAPRLLMYDASNRATGIPARFSGSGSGTDFTLTISSLEPEDFAVYYCQQRNDWPFTFGPGTKVDIK
- binding result: binds
